For 1 molecule, activity (protection from FP59) results are on record in PubChem BioAssay AID720517 (National Center for Advancing Translational Sciences (NCATS), 2013).

The assay in a line: qHTS for Inhibitors of Cell Surface uPA Generation: FP59 Counterscreen for Cherry-picked Compounds. Note: 0% is about no effect. The note with it: FP59 anthrax toxin cytotoxicity counterscreen, cells; at 115 µM (top of the series).

This is a selection; strong and weak results do not stand in their true shares. Inconclusive results are not listed. The source made the active and inactive calls. Calls come from the whole dose curve; as a rule, active = well fitted activation curve with a large enough effect; inconclusive = small, poorly fitted or top-dose-only effect; inactive = flat fitted curve, though single readings scatter.

With `O=C(O)CNc1ccc([As](=O)(O)O)cc1`, the activity (protection from FP59) was inactive: -1.29%.
